Experimental findings from paper PMC5234717 (Journal of Lipid Research, 2016) are described below.

For orientation: Km means the substrate concentration at which the rate is half of its maximum. By Vmax is commonly meant the rate approached at saturating substrate. A word on the kcat/Km: it is the second-order rate constant that governs catalysis at low substrate concentration.

The series has as its system CCCCCCCCCCCCC/C=C/[C@@H](O)[C@@H](N)COP(=O)(O)O. As to the kind of experiment: purified protein. As to conditions: pH 7.5.

As for “S1PL2021 (Burkholderia pseudomallei K96243)”, the Michaelis constant (Km) stood at 48.2 ± 9.4 µM, the Vmax was determined as 0.0175 µmol/min/mg and the kcat/Km stood at 320 M⁻¹ s⁻¹.
